A mixed list of measured activities; the numbers were collected in NIAID ChemDB.

Shared fields: tests in culture; agent: HIV-1; endpoint: EC50

Blank or dashed fields: not listed here. Neighbouring rows are from separate reports. ECn is the concentration giving n% inhibition of infection, replication or growth.

SMILES | strain or isolate | changes | cell line | read by | value
CC(C)C1=C2[C@H]3CC[C@@H]4[C@@]5(C)CC[C@H](OC(=O)[C@H]6C[C@@H](C(=O)O)C6(C)C)C(C)(C)[C@@H]5CC[C@@]4(C)[C@]3(C)CC[C@@]2(CCNC(=O)c2ncc[nH]2)CC1=O | 92HT599 | - | MT-2 | p24 / ELISA | <1 µM
Cc1cc(S(N)(=O)=O)ccc1NC(=O)COc1ccc(Cl)cc1C(=O)c1cc(F)cc(C#N)c1 | HXB2 | RT-K103N V108I | HeLa + HELA CD4+ | β-galactosidase | <0.01 µM
COc1ccccc1C(=O)Nc1ccc(Cl)c(C(=O)OC(C)C)c1 | UC040-R (RT-Y181C) | RT-Y181C | CEM + CEM-SS | cytopathic effect / XTT | 6.8 µM
CC(C)C1=C2[C@H]3CC[C@@H]4[C@@]5(C)CC[C@H](OC(=O)[C@H]6C[C@@H](C(=O)O)C6(C)C)C(C)(C)[C@@H]5CC[C@@]4(C)[C@]3(C)CC[C@@]2(CCNCC(C)(CO)NC(=O)c2ccc(Cl)cc2)CC1=O | 92HT599 | - | MT-2 | p24 / ELISA | <1 µM
CCCc1cc(=O)oc2c3c(c4c(c12)OC(C)(C)CC4)O[C@@H](C)[C@H](C)[C@@H]3O | Calanolide A-resistant (RT T139I) | RT-T139I | CEM + CEM-SS | XTT | >27 µM
Cc1cc(S(N)(=O)=O)ccc1NC(=O)COc1ccc(Cl)cc1C(=O)c1cc(C#N)cc(C#N)c1 | WTRVA | - | HeLa + HELA CD4+ | β-galactosidase | <0.01 µM
CC(C)C1=C2[C@H]3CC[C@@H]4[C@@]5(C)CC[C@H](OC(=O)[C@H]6C[C@@H](C(=O)O)C6(C)C)C(C)(C)[C@@H]5CC[C@@]4(C)[C@]3(C)CC[C@@]2([C@@H](O)CNC(=O)C(C)(C)NC(=O)c2ccc(N3CCS(=O)(=O)CC3)cc2)CC1=O | 92HT599 | - | MT-2 | p24 / ELISA | <1 µM
Cc1cc(C#N)cc(C(=O)c2cc(Cl)ccc2OCC(=O)Nc2ccc(S(N)(=O)=O)nc2C)c1 | HXB2 | RT-P236L | HeLa + HELA CD4+ | β-galactosidase | <0.01 µM
[2H]C(CCCCN)(NC(=O)c1ccc(Cl)cc1)C(=O)NC[C@H](O)[C@@]12CC[C@]3(C)[C@H](CC[C@@H]4[C@@]5(C)CC[C@H](OC(=O)[C@H]6C[C@@H](C(=O)O)C6(C)C)C(C)(C)[C@@H]5CC[C@]43C)C1=C(C(C)C)C(=O)C2 | 92HT599 | - | MT-2 | p24 / ELISA | <1 µM
Cc1cc(S(N)(=O)=O)ccc1NC(=O)COc1ccc(Cl)cc1C(=O)c1cc(Cl)cc(C#N)c1 | HXB2 | RT-V108I Y181C | HeLa + HELA CD4+ | β-galactosidase | <0.01 µM
CC(C)=CCOc1cc(NC(=S)c2ccsc2C)ccc1Cl | NL4-3 | RT-K101E | CEM + CEM-SS | p24 | 0.006 µM
CC(C)=CCOc1cc(NC(=S)c2ccoc2C)ccc1Cl | NL4-3 (RT V108I) | RT-V108I | CEM + CEM-SS | cytopathic effect / XTT | 0.01 µM
CC(C)C1=C2[C@H]3CC[C@@H]4[C@@]5(C)CC[C@H](OC(=O)[C@H]6C[C@@H](C(=O)O)C6(C)C)C(C)(C)[C@@H]5CC[C@@]4(C)[C@]3(C)CC[C@@]2(CC(=O)NCc2ccc(Cl)cc2OC2CCNCC2)CC1=O | 92HT599 | - | MT-2 | p24 / ELISA | <1 µM
CC(C)=CCOc1cc(NC(=S)c2ccsc2C)ccc1Cl | BaL | - | MAC | cytopathic effect / XTT | 0.008 µM
CCc1cc(C#N)cc(C(=O)c2cc(Cl)ccc2OCC(=O)Nc2ccc(S(N)(=O)=O)cc2C)c1 | HXB2 | RT-P225H | HeLa + HELA CD4+ | β-galactosidase | <0.01 µM

A second listing of 2 rows from above:

SMILES | strain or isolate | changes | cell line | read by | value
CC(C)=CCOc1cc(NC(=S)c2ccoc2C)ccc1Cl | NL4-3 (RT V108I) | RT-V108I | CEM + CEM-SS | cytopathic effect / XTT | 0.01 µM
COc1ccccc1C(=O)Nc1ccc(Cl)c(C(=O)OC(C)C)c1 | UC040-R (RT-Y181C) | RT-Y181C | CEM + CEM-SS | cytopathic effect / XTT | 6.8 µM